Source: article PMC10326071 (2023)

Experiments:
[1] = target: middle domain of human poly(A)-binding protein-interacting protein 1 (Paip1M, residues 78-296) (human) (UniProt Q9H074); assay: BLI
[2] = target: middle domain of human Paip1 (Paip1M, residues 78-296) (human) (UniProt Q9H074); assay: BLI

SARS-CoV-2 SUD-core (nsp3 residues 413-676, SUD-N and SUD-M) (domain or fragment)
Kd [1]: 18 µM

SARS-CoV-2 SUD-core-CC (nsp3 413-676 with L516C and Y647C) (domain or fragment)
Kd [2]: 7.2 µM | koff [2]: 0.011 s⁻¹ | kon [2]: 1500 M⁻¹ s⁻¹
